Tested on: HIV-IIIb
Experiment: Antiviral assay in MT-2 cells infected with HIV-IIIb
Assay type: cell-based
Settings: read-out: EC50 in MT-2 cells, m.o.i. 0.01, 10% FBS, 5 days at 37° C., CellTiter-Glo chemiluminescence

Q: For CNC(=O)c1c(O)c2ncc(Cc3ccc(F)cc3)c3c2n(c1=O)C[C@@H](CN1CCN(S(C)(=O)=O)CC1)O3, which EC50 is on record?
A: 0.3 nM

Q: With CNC(=O)c1c(O)c2ncc(Cc3ccc(F)cc3)c3c2n(c1=O)CC[C@H](C(=O)NC)O3 as the compound, how does the EC50 read?
A: 43 nM

— US7998950B2, “Antiviral compounds” (Gilead Sciences, Inc., priority 2008, dated 2011)
